Measurements reported in PubChem BioAssay AID624099 (ICCB-Longwood, 2012)
Test: 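Human genes that papillomavirus E2 requires to repress the HPV18 LCR promoter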 (primary screen). Cells: human C33A cervical carcinoma cells (HPV-negative) stably expressing BPV1 E2 and an HPV18 LCR luciferase reporter. Knock-down reagent: siRNA pool against human genes, 40 nM. Time to read-out: 72 h. Measurement: 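Per-well luciferase luminescence, z-scored on each plate against the plate mean and SD with control wells left out, then averaged across three replicate plates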. Direction: mean z-score and z-score: higher = stronger reporter signal, weaker E2 silencing. Rule for the call: 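Mean z ≥ 2 together with z ≥ 2 in two or more of the three replicates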.
The whole screen tested about 21,000 reagents; this is an unselected part. Over the whole deposit, 497 (2.4%) are marked active. 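Higher z means weaker E2 silencing; only reporter increases were scored, and knock-downs that hurt cell survival may mask genuine repressor factors.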 Reagents against one gene are numbered here. No sequences are given here.

| gene knocked down | reagent | mean z-score | z-score, replicate A | z-score, replicate B | z-score, replicate C | activity call |
| --- | --- | --- | --- | --- | --- | --- |
| MAIP1 (GeneID 79568) | 1 | -0.46 | -0.93 | -0.63 | 0.18 | inactive |
| LOC105378586 (GeneID 105378586) | 1 | -0.68 | -1 | -0.67 | -0.38 | inactive |
| IL18RAP (GeneID 8807) | 1 | 0.27 | 0.25 | 0.23 | 0.34 | inactive |
| HECTD4 (GeneID 283450) | 1 | 0.52 | 0.67 | 0.43 | 0.46 | inactive |
| HECTD4 (GeneID 283450) | 2 | 0.55 | 0.74 | 0.57 | 0.33 | inactive |
| H4C8 (GeneID 8365) | 1 | 0.47 | 0.25 | 0.51 | 0.64 | inactive |
| ABHD14B (GeneID 84836) | 1 | -0.27 | -0.54 | -0.29 | 0.02 | inactive |
| NFAM1 (GeneID 150372) | 1 | 0.33 | 0.28 | 0.45 | 0.28 | inactive |
| TMEM17 (GeneID 200728) | 1 | -0.61 | -0.82 | -0.55 | -0.48 | inactive |
| MMP20 (GeneID 9313) | 1 | 0.87 | 0.6 | 0.74 | 1.28 | inactive |
| FAM182B (GeneID 728882) | 1 | 1.89 | 1.94 | 2.23 | 1.51 | inactive |
| EPHA10 (GeneID 284656) | 1 | -1.04 | -1.51 | -0.71 | -0.91 | inactive |
| CBLB (GeneID 868) | 1 | 0.75 | 1.13 | 0.41 | 0.72 | inactive |
| COMMD10 (GeneID 51397) | 1 | -0.52 | -0.34 | -0.45 | -0.76 | inactive |
| ABLIM1 (GeneID 3983) | 1 | 0.08 | -0.07 | 0.27 | 0.05 | inactive |
| CDK3 (GeneID 1018) | 1 | 0.26 | -0.43 | 0.11 | 1.09 | inactive |
| FBXO39 (GeneID 162517) | 1 | 0.75 | 0.26 | 0.77 | 1.21 | inactive |
| IL36A (GeneID 27179) | 1 | 2.43 | 2.69 | 2.3 | 2.31 | active |
| ZFP36L2 (GeneID 678) | 1 | -0.69 | -0.8 | -0.49 | -0.78 | inactive |
| TMEM179B (GeneID 374395) | 1 | -1.3 | -1.38 | -1.24 | -1.3 | inactive |
| KHDC3L (GeneID 154288) | 1 | -0.41 | -0.65 | -0.38 | -0.21 | inactive |
| MRPS23 (GeneID 51649) | 1 | 0.28 | 0.37 | 0.22 | 0.24 | inactive |
| ABCB5 (GeneID 340273) | 1 | 0.31 | 0.64 | 0.21 | 0.09 | inactive |
| RIPPLY1 (GeneID 92129) | 1 | 0.41 | 0.39 | 0.42 | 0.41 | inactive |
| SCD (GeneID 6319) | 1 | -0.86 | -1.02 | -0.61 | -0.95 | inactive |
| ERICH2 (GeneID 285141) | 1 | 0.25 | 0.46 | 0.34 | -0.06 | inactive |
| LOC388297 (retired record) (GeneID 388297) | 1 | 0.13 | 0.3 | -0.13 | 0.21 | inactive |
| STAG3L4 (GeneID 64940) | 1 | -0.08 | -0.33 | 0.23 | -0.14 | inactive |
| PTGER3 (GeneID 5733) | 1 | 0.06 | -0.03 | 0 | 0.21 | inactive |
| MYOCD (GeneID 93649) | 1 | -0.24 | -0.19 | -0.46 | -0.06 | inactive |
| BLK (GeneID 640) | 1 | 0.19 | 0.06 | 0.27 | 0.25 | inactive |
| LOC401528 (retired record) (GeneID 401528) | 1 | 1.13 | 1.47 | 0.75 | 1.17 | inactive |
| FBRS (GeneID 64319) | 1 | -1.47 | -1.68 | -1.45 | -1.29 | inactive |
| TONSL (GeneID 4796) | 1 | -0.35 | -0.25 | -0.31 | -0.49 | inactive |
| SHLD2P1 (GeneID 414241) | 1 | -1.32 | -1.59 | -1.28 | -1.09 | inactive |
| CPEB1 (GeneID 64506) | 1 | -0.03 | 0.09 | 0.04 | -0.23 | inactive |
| ATP6V0C (GeneID 527) | 1 | 2.09 | 2.14 | 1.88 | 2.26 | active |
| LINC00474 (GeneID 58483) | 1 | 0.05 | 0.34 | 0.27 | -0.46 | inactive |
| CDH6 (GeneID 1004) | 1 | -0.39 | -0.66 | -0.2 | -0.32 | inactive |
| OASL (GeneID 8638) | 1 | -0.38 | -0.51 | -0.41 | -0.22 | inactive |
| SEMA3G (GeneID 56920) | 1 | -0.45 | -0.54 | -0.43 | -0.38 | inactive |
| UBE2V1 (GeneID 7335) | 1 | 0.07 | 0.01 | 0.11 | 0.08 | inactive |
| LOC391353 (retired record) (GeneID 391353) | 1 | 1.23 | 1.51 | 1.03 | 1.16 | inactive |
| GFAP (GeneID 2670) | 1 | 0.07 | 0.02 | 0 | 0.18 | inactive |
| LINC02167 (GeneID 400533) | 1 | 0.32 | -0.08 | 0.67 | 0.36 | inactive |
| LOC389905 (retired record) (GeneID 389905) | 1 | 0.19 | -0.01 | 0.11 | 0.47 | inactive |
| TRIM33 (GeneID 51592) | 1 | 0.91 | 0.66 | 1.02 | 1.04 | inactive |
| LGR5 (GeneID 8549) | 1 | 0.06 | -0.19 | 0.48 | -0.11 | inactive |
| VKORC1 (GeneID 79001) | 1 | 0.65 | 0.55 | 0.59 | 0.8 | inactive |
| GABRG2 (GeneID 2566) | 1 | 1.32 | 1.14 | 1.45 | 1.36 | inactive |
| VPREB3 (GeneID 29802) | 1 | -0.36 | -0.36 | -0.54 | -0.19 | inactive |
| CTCF (GeneID 10664) | 1 | -1.14 | -1.29 | -1.18 | -0.96 | inactive |
| RHOD (GeneID 29984) | 1 | 0.2 | 0.21 | 0.2 | 0.17 | inactive |
| KIF5B (GeneID 3799) | 1 | -0.05 | -0.04 | -0.03 | -0.07 | inactive |
| CCDC185 (GeneID 164127) | 1 | 0.9 | 0.76 | 0.95 | 0.99 | inactive |
| CYB561 (GeneID 1534) | 1 | 0.8 | 1.63 | 0.37 | 0.41 | inactive |
| OR51F2 (GeneID 119694) | 1 | -0.07 | 0.11 | 0 | -0.31 | inactive |

Laid out differently: 5 of the entries above.
gene knocked down | reagent | mean z-score | z-score, replicate A | z-score, replicate B | z-score, replicate C | activity call
ABCB5 (GeneID 340273) | 1 | 0.31 | 0.64 | 0.21 | 0.09 | inactive
RIPPLY1 (GeneID 92129) | 1 | 0.41 | 0.39 | 0.42 | 0.41 | inactive
SCD (GeneID 6319) | 1 | -0.86 | -1.02 | -0.61 | -0.95 | inactive
ERICH2 (GeneID 285141) | 1 | 0.25 | 0.46 | 0.34 | -0.06 | inactive
LOC388297 (retired record) (GeneID 388297) | 1 | 0.13 | 0.3 | -0.13 | 0.21 | inactive
